Pooled drug test results. Numbers come from NIAID ChemDB, via PubChem.

All rows: whole-cell or culture tests; agent: Hepatitis C virus; measure: EC50

Blank or dashed fields: not listed here. Two numbers with a dash give a range or band. ECn: concentration that inhibits the pathogen or its effect by n%. Conditions beyond the fields shown may differ between rows.

compound | cells | strain or isolate | value
CCCCCOc1ccc(N(C(=O)C(=O)OC)c2nc(-c3ccc(F)c(F)c3)cs2)cc1C(F)(F)F | - | - | <1 µM
Cc1cc(-c2nnc(N[C@@H]3CCC[C@H](O)C3)o2)nc2c(C(C)(C)C)cc(OCC(F)(F)F)cc12 | Huh7 | GT 2a JFH | 0.096 µM
COC(=O)Nc1ccc(-c2cnc3nc(N)nc(N4CCOCC4)c3n2)cc1 | Huh7 | - | <3 µM
COC(=O)N[C@H](C(=O)N1CCC[C@@H]1C1=NCC(c2cnc(-c3ccc(-c4cnc([C@H]5CCCN5C(=O)[C@@H](NC(=O)OC)C(C)C)[nH]4)c(F)c3)nc2)=N1)C(C)C | - | 1b | 0.00001–0.000999 µM
CCCCCOc1ccc2c(c1)[nH]c(=S)n2-c1nc(-c2cccnc2)cs1 | - | - | >10 µM
COC(=O)N[C@H](C(=O)N1CCC[C@H]1c1ncc(-c2ccc(-c3ccc(-c4cnc([C@@H]5CCCN5C(=O)[C@H](NC(=O)OC)c5ccccc5)[nH]4)cc3C)nc2)[nH]1)c1ccccc1 | - | 1b | 0.00001–0.000999 µM
C[C@@H](NC(=O)c1ccc2c(n1)nc(-c1ccoc1)n2C1CCCCC1)C(=O)Nc1ccc(/C=C/C(=O)O)cc1 | Huh7 | - | 5–50 µM
Nc1nc(N2CCOCC2)c2nc(-c3cccc(Cl)c3Cl)cnc2n1 | Huh7 | - | 0.3–1 µM
O=C(O)/C=C/c1ccc(NC(=O)C2(NC(=O)c3ccc4c(c3)nc(-c3ccccc3)n4C3CCCCC3)CCCC2)cc1 | Huh7 | - | ≤5 µM
CCCCOc1ccc(N(C(N)=O)c2nc(-c3ccc(F)cc3)cs2)cc1C(F)(F)F | - | - | <1 µM
CCOc1nc(N)nc2ncc(-c3ccc(C)cc3)nc12 | Huh7 | - | 1–10 µM
C[C@H]1CCC[C@H](C)C1n1c(-c2ccco2)nc2cc(C(=O)NC3(C(=O)Nc4ccc(/C=C/C(=O)O)cc4)CCCC3)ccc21 | Huh7 | - | ≤5 µM
COC(=O)N[C@@H](C(=O)N[C@@H](C)c1ncc(-c2ccc(-c3ccc(-c4cnc([C@@H]5CCCN5C(=O)[C@H](NC(=O)OC)c5ccccc5)[nH]4)cc3)nc2)[nH]1)c1ccccc1 | - | 1b | 0.00001–0.000999 µM
CC(C)C(=O)Nc1ccc(-c2cnc3nc(N)nc(N4CCOCC4)c3n2)cc1 | Huh7 | - | 1–10 µM
Cc1cc(-c2cnc([C@@H]3CCCN3C(=O)[C@@H](c3ccccc3)N(C)C)[nH]2)ccc1-c1ccc(-c2cnc([C@@H]3CCCN3C(=O)[C@H](c3ccccc3)N(C)C)[nH]2)cn1 | - | 1b | 0.00001–0.000999 µM
Nc1nc(N2CCOCC2)c2nc(-c3cccc(OC(F)(F)F)c3)cnc2n1 | Huh7 | - | <0.3 µM
O=C(O)/C=C/c1ccc(NC(=O)C2(NC(=O)c3ccc4c(c3)nc(-c3ccccn3)n4C3C[C@H]4CC[C@@H]3C4)CCCC2)cc1 | Huh7 | - | ≤5 µM
NC(=O)N(c1ccc(OCC2CCCCC2)c(F)c1)c1nc(-c2ccc(F)c(F)c2)cs1 | - | - | <1 µM
Cc1cc(=O)oc2cc(NC(=O)[C@@H](C)NC(=O)c3ccc4c(c3)nc(-c3ccoc3)n4C3CCCCC3)ccc12 | Huh7 | - | ≤5 µM
COC(=O)N[C@@H](C)C(=O)N1CCC[C@@H]1c1ncc(-c2cnc(-c3ccc(-c4nc([C@H]5CCCN5C(=O)[C@H](C)NC(=O)OC)[nH]c4C(F)(F)F)cc3)nc2)[nH]1 | - | 1b | 0.00001–0.000999 µM
COc1nc(N)nc2ncc(-c3ccc(F)cc3)nc12 | Huh7 | - | 0.3–1 µM
C[C@@H]1CCCC[C@H]1n1c(-c2ccoc2)nc2cc(C(=O)NC3(C(=O)Nc4ccc(/C=C/C(=O)O)cc4)CCCC3)ccc21 | Huh7 | - | ≤5 µM
C[C@H](NC(=O)[C@@H](c1ccccc1)N(C)C)c1ncc(-c2cnc(-c3ccc(-c4cnc([C@H]5CCCN5C(=O)[C@@H](c5ccccc5)N(C)C)[nH]4)cc3)nc2)[nH]1 | - | 1b | 0.00001–0.000999 µM
CCCCCOc1ccc2c(c1)[nH]c(=O)c(=O)n2-c1nc(-c2cccnc2)cs1 | - | - | >10 µM
CCOc1nc(N)nc2ncc(-c3ccncc3)nc12 | Huh7 | - | 0.3–1 µM
Cc1cc(-c2nnc(NC3CC(O)(C(F)F)C3)o2)nc2c(C(C)(C)C)cc(NCC(F)(F)F)cc12 | Huh7 | GT 1b H94N | 0.0074 µM

For reference, 3 entries again:

compound	cells	strain or isolate	value
CCCCCOc1ccc2c(c1)[nH]c(=S)n2-c1nc(-c2cccnc2)cs1	-	-	>10 µM
CCCCCOc1ccc2c(c1)[nH]c(=O)c(=O)n2-c1nc(-c2cccnc2)cs1	-	-	>10 µM
CCCCOc1ccc(N(C(N)=O)c2nc(-c3ccc(F)cc3)cs2)cc1C(F)(F)F	-	-	<1 µM